# Data: doi:10.1101/2025.01.06.631558v1
# Test system: CC(O)(C(=O)O)C(CC(=O)O)C(=O)O
# Test: purified protein
# Conditions: pH 7.5; 37.0 °C
substance,measurement,value
(Coxiella burnetii RSA 493),Km,390 ± 47 µM
